Reference: patent US9498483B2, “2,3,5-trisubstituted thiophene compounds and uses thereof” (priority 2010, dated 2016)

Target: HCV polymerase (Hepatitis C virus genotype 1b, UniProt Q9WMX2)
Test: Polymerase assay of Biological Example 1 (IC50 values of Table 3)
Type: biochemical
Conditions: read-out: NS5B-enzyme3; IC50 values of Table 3, polymerase assay of Biological Example 1
Excerpt: A number of assays have been published to assess these activities. A general method that assesses the gross increase of HCV virus in culture was disclosed in U.S. Pat. No. 5,738,985 to Miles et al. In vitro assays have been reported in Ferrari et al. Jnl. of Vir., 73:1649-1654, 1999; Ishii et al., Hepatology, 29:1227-1235, 1999; Lohmann et al., Jnl of Bio. Chem., 274:10807-10815, 1999; and Yamashita et al., Jnl. of Bio. Chem., 273:15479-15486, 1998.
WO 97/12033, filed on Sep. 27, 1996, by Emory University, listing C. Hagedorn and A. Reinoldus as inventors, which claims priority to U.S. Provisional Patent Application Ser. No. 60/004,383, filed on September 1995, described an HCV polymerase assay that can be used to evaluate the activity of the of the compounds described herein. Another HCV polymerase assay has been reported by Bartholomeusz, et al., Hepatitis C Virus (HCV) RNA polymerase assay using cloned HCV non-structural proteins; Antiviral Therapy 1996:1 (Supp 4) 18-24.

Compound `O=C(COc1ccccc1)NC1CC(=O)N(c2cc(-c3ccccc3)sc2C(=O)O)C(C2CCCCC2)C1` (stereo not shown) has an IC50 of 970 nM.
